The values below are quoted from earlier work in patent US11058716B2 (priority 2015, dated 2021).

SMILES strings stand for the structures.

For the data set, the system named is Pseudomonas aeruginosa. The conditions noted are these: 2˜4 mM; cited from earlier work.

Regarding `Oc1cc(O)c2c(c1)O[C@H](c1ccc(O)c(O)c1)[C@@H](O)C2`, the “reduction of the synthesis of PCN” value is 50%.
